This note sets out measurements from paper doi:10.1101/2025.06.18.660159 (bioRxiv, 2025).

The data set deals with the molecule itself. The data set is described as follows: native gel or EMSA.

B1: STING (natural protein, human (endogenous in HUVEC), UniProt Q86WV6 1-379, looked up)
chain: MPHSSLHPSIPCPRGHGAQKAALVLLSACLVTLWGLGEPPEHTLRYLVLHLASLQLGLLLNGVCSLAEELRHIHSRYRGSYWRTVRACLGCPLRRGALLLLSIYFYYSLPNAVGPPFTWMLALLGLSQALNILLGLKGLAPAEISAVCEKGNFNVAHGLAWSYYIGYLRLILPELQARIRTYNQHYNNLLRGAVSQRLYILLPLDCGVPDNLSMADPNIRFLDKLPQQTGDHAGIKDRVYSNSIYELLENGQRAGTCVLEYATPLQTLFAMSQYSQAGFSREDRLEQAKLFCRTLEDILADAPESQNNCRLIAYQEPADDSSFSLSQEVLRHLRQEEKEEVTVGSLKTSAVPSTSTMSQEPELLISGMEKPLPLRTDFS
On to B1, for which the “stoichiometry N” value turned out to be 2.
